As usually defined, the Kd is a measure of binding affinity in units of concentration. A high value points to lower affinity. The koff is the first-order rate constant of dissociation. Low readings indicate a long-lived complex, high ones a short-lived complex. As a reminder, the kon is a measure of how fast the partners come together.

Experimental findings from PMC9606073 (Immunity, 2022) are described below.

Holding throughout (details): both partners purified
One test concerns the target LYRa3 RBD (LYRa3 bat sarbecovirus (AHX37569.1), UniProt A0A023PTS3, strain). The test can be described thus: ELISA.
A further test deals with RaTG13-CoV RBD (Bat coronavirus RaTG13 (QHR63300), UniProt A0ABF7PLN6, strain). Nature of the test: ELISA.
Test [1] concerns the target SHC014-CoV RBD (Bat SARS-like coronavirus RsSHC014, UniProt U5WLK5). Nature of the test: ELISA. (In an ELISA, binding on a coated surface is turned into a signal by an enzyme label.)
Test [2] deals with Rs4081-CoV RBD (Rs4081 bat sarbecovirus (KY417143), UniProt A0A2D1PX44, strain). Nature of the test: ELISA.
The next test addresses Pangolin17-CoV RBD (Pangolin coronavirus (Pang17), GenBank …, strain). The test can be described thus: ELISA.
Another test has as its target C028 RBD (SARS coronavirus C028, UniProt Q4JDM5, strain). Nature of the test: ELISA.
The target in test [3] is Rs4081-CoV RBD (Rs4081 bat sarbecovirus (KY417143), UniProt A0A2D1PX44, strain). The test can be described thus: SPR. For orientation: Surface plasmon resonance follows binding to a sensor surface in real time, without labels.
The target in test [4] is SHC014-CoV RBD (Bat SARS-like coronavirus RsSHC014, UniProt U5WLK5). The test can be described thus: SPR.
The target of a further test is Rf1-CoV RBD (Bat SARS CoV Rf1/2004, UniProt Q0QDZ0, strain). Nature of the test: SPR.

B1: M8a-31 IgG (antibody, V domains shown)
VH: EVQLKQSVAELVRPGASVKVSCTASGFNIKNIYMHWVKQRPEQGLDWIGRIDPANGNSRYAPKFQDKATITADTSSNTAYLQLSSLTSEDTAIYYCADEGWGFANWGQGTLVTVSA
VL: DIVMTQSPSSLTVTAGEKVTMSCKSSQSLLNSGNQKNYLTWYQQKVGQPPKLLIYWASTRDPGVPDRFTGSGFGTDFTLTISSVQAEDLAVYYCQNDYSYPLTFGAGTKVELK
notes: copies: 2 + 2
B1: the binding result in the test with LYRa3 RBD, with RaTG13-CoV RBD, in the test with SHC014-CoV RBD [1], with Rs4081-CoV RBD [2], with Pangolin17-CoV RBD and in the test with C028 RBD was “binds” each time.

B2: M8a-3 IgG (antibody, V domains shown)
VH: QVQLQQPGAELVLPGASVKLSCKASGYTFTNYWMHWVKQRPGHGLEWIGEIDPFDTYIKINQKFKGKSTLTVDTSSSTAYMQLSSLTSEDSAVYYCARPDSSGYPVYFDYWGQGTTLTVSS
VL: DIVMTQSHKFMSTSVGDRVSITCKASQDVGTYIAWYQQKPGQSPKLLIYWASTRHTGVPDRFTGSGSGTNYTLTISSVQAEDLALYHCQQHYSTPYTFGGGTKLEIK
notes: copies: 2 + 2
As to B2, in the test with Rs4081-CoV RBD [3], the affinity, expressed as Kd, was 14 nM and the koff is 0.0019 s⁻¹. In the test with SHC014-CoV RBD [4], this molecule came in with a dissociation constant Kd of 0.48 nM, a koff of 0.0002 s⁻¹ and a kon of 410000 M⁻¹ s⁻¹.

B3: M8a-3 IgG (antibody, V domains shown)
VH: QVQLQQPGAELVLPGASVKLSCKASGYTFTNYWMHWVKQRPGHGLEWIGEIDPFDTYIKINQKFKGKSTLTVDTSSSTAYMQLSSLTSEDSAVYYCARPDSSGYPVYFDYWGQGTTLTVSS
VL: DIVMTQSHKFMSTSVGDRVSITCKASQDVGTYIAWYQQKPGQSPKLLIYWASTRHTGVPDRFTGSGSGTNYTLTISSVQAEDLALYHCQQHYSTPYTFGGGTKLEIK
notes: copies: 2 + 2
B3: the binding result with LYRa3 RBD, with RaTG13-CoV RBD, in the test with Pangolin17-CoV RBD and with C028 RBD was “binds” throughout.

B4: M8a-6 IgG (antibody, V domains shown)
VH: QVQLQQPGTELVMPGASVKLSCKTSGYTFTHYWMHWVKQRPGEGLEWIGEIAPSDNYVKYNQKFKGKSTLSVDRSSSTAYMQLSSLTSEDSAVYFCARPDNSGYPVYFDYWGQGTSLTVSS
VL: DIVMTQSQKFMSTSLGDRVSISCKASQDVGTTVAWYQQKPGQSPKLLIYWASTRHTGVPDRFTGTGSGTDYTLTISSVAAEDLALYYCQQHYNTPYTFGGGTKLEIE
notes: copies: 2 + 2
With B4, the dissociation constant Kd with Rs4081-CoV RBD [3] is 3000 nM; in the test with SHC014-CoV RBD [4], 545 nM; in the test with Rf1-CoV RBD, 710 nM.

B5: C118 IgG (antibody, V domains shown)
VH: QVQLVESGGGVVQPGRSLRLSCAASGFTFSNYAMHWVRQAPGKGLEWVAVISYDGSNKYYADSVKGRFTISRDNSKNTLYLQMNSLRAEDTAIYYCASGYTGYDYFVRGDYYGLDVWGQGTTVTVSS
VL: QPVLTQSPSASASLGASVKLTCTLSSGHSSYAIAWHQQQPEKGPRYLMKLNTDGSHSKGDGIPDRFSGSSSGAERYLTISSLQSEDEADYYCQTWGTGILVFGGGTKLTVL
notes: copies: 2 + 2
B5: in the test with Rs4081-CoV RBD [3], the Kd was 2.5 nM, the koff was found to be 0.00018 s⁻¹ and the kon was found to be 72000 M⁻¹ s⁻¹. In the test with SHC014-CoV RBD [4], the dissociation constant (Kd) amounted to 70 nM, the koff was determined as 0.0089 s⁻¹ and the kon stood at 130000 M⁻¹ s⁻¹. In the test with Rf1-CoV RBD, this molecule returned a Kd of 23 nM, an off-rate (koff) of 0.00096 s⁻¹ and a kon of 42000 M⁻¹ s⁻¹.

B6: M8a-34 IgG (antibody, V domains shown)
VH: QVQLQQPGAELVKPGASVKMSCKASGYTFITYWITWVKQRPGQGLEWIGDIYPGGGRTNYNEKFKSKATLTVDTSSSTAYMQLRSLTSEDSAVYYCARYDGNYVGYYYAMDYWGQGTSVTVSS
VL: DIVLTQSPVSLAVSLGQRATISCRASESVDFYGNSFIYWYQQKPGQAPKLLIYRASNLESGIPARFSGSGSRTDFTLTIHPVEADDVATYYCQQSIEDPRTFGGGTKLEIK
notes: copies: 2 + 2
Consider B6, for which the binding result in the test with LYRa3 RBD, in the test with RaTG13-CoV RBD, in the test with SHC014-CoV RBD [1], with Rs4081-CoV RBD [2], in the test with Pangolin17-CoV RBD and with C028 RBD was “binds” throughout.
